Compound potency records, mixed from different reports. Data source: NIAID ChemDB in PubChem.

All rows: tests in culture; agent: Hepatitis C virus; endpoint: EC50

ECn: concentration that inhibits the pathogen or its effect by n%. Lines come from different laboratories, so protocols vary. An empty or dashed field is not shown. a–b is a range or a potency band.

smiles,strain or isolate,read by,result
Nc1ccccc1Cn1c(C(=O)O)c(-c2ccccc2F)c2c3ccccc3ccc21,,replicon,>10 µM
CNC(=O)CCC(=O)N1c2cccc(O)c2NC2=C(C(=O)CC(C)(C)C2)C1c1ccc(OCc2ccccc2)cc1Cl,1b,luciferase / reporter gene / replicon,7.41 µM
COc1cc2c(=O)c(-c3noc(CC4CCCC4)n3)cn(Cc3ccc(Cl)cc3)c2cc1OC,1b,replicon,>10 µM
CC(C)(N)C(=O)Nc1ccc(-c2ccc3nc(NCc4ccc(S(N)(=O)=O)cc4)nc(NCCS(C)(=O)=O)c3n2)cc1,,replicon,0.1–0.25 µM
NC(=O)c1ccc(F)c(Cn2c(C(=O)O)c(-c3ccc[nH]c3=O)c3c4occc4c(F)cc32)c1,,replicon,<0.5 µM
CCOc1nc(NCc2ccc(F)cc2)nc2ccc(-c3cccc(NS(=O)(=O)C4CC4)c3)nc12,,replicon,<0.1 µM
CC1(C)CC(=O)C2=C(C1)Nc1c(O)cccc1N(C(=O)CCC(=O)Nc1ccccc1F)C2c1ccc(OCc2ccccc2)cc1Cl,1b,luciferase / reporter gene / replicon,1.3 µM
Cc1coc2c1ccc1c2c(-c2ccc[nH]c2=O)c(C(=O)O)n1Cc1cc(F)ccc1F,,replicon,>1.5 µM
CN1CCN(c2cc3c(cc2F)c(=O)c(-c2noc(Cc4ccc(F)cc4)n2)cn3Cc2c(F)cccc2F)CC1,1b,replicon,>10 µM
CC(C)C(=O)N1c2cccc(O)c2NC2=C(C(=O)CC(C)(C)C2)C1c1ccc(OCc2cccc(F)c2F)cc1F,1b,luciferase / reporter gene / replicon,4.54 µM
CS(=O)(=O)NC(=O)c1c(-c2ccc[nH]c2=O)c2c3occ(Cl)c3ccc2n1Cc1ccccc1F,,replicon,<0.5 µM
O=C(O)/C=C/c1ccc(NC(=O)C2(NC(=O)c3ccc4c(c3)nc(-c3ccoc3)n4C3CCCCC3)CCC2)cc1,1b,replicon,1.6 µM
CC1CCC(C(=O)N(CC2CC2)c2cc(-c3ccc(NC(=O)c4cnccn4)cc3)sc2C(=O)O)CC1,1b,replicon,<0.5 µM
C[C@@H]1CN(c2cc3c(cc2F)c(=O)c(-c2noc(C(C)(C)c4ccccc4)n2)cn3Cc2ccc(C(F)(F)F)cc2)C[C@H](C)N1,1b,replicon,<0.5 µM
CC1(C)CC(=O)C2=C(C1)Nc1c(O)cccc1N(C(=O)c1ccc(C(N)=O)cc1)C2c1ccc(OCc2ccccc2)cc1Cl,1b,luciferase / reporter gene / replicon,8.54 µM
CC1CCC(C(=O)N(c2cc(-c3ccc(NC(=O)c4cnccn4)nc3)sc2C(=O)O)C(C)C)CC1,1a,replicon,<0.5 µM
CC1(C)CC(=O)C2=C(C1)Nc1c(O)cccc1N(C(=O)OCc1ccccc1)C2c1ccc(OCc2ccccc2)cc1Cl,1b,luciferase / reporter gene / replicon,1.47 µM
CCOc1nc(NCc2ccc(F)cc2)nc2ccc(-c3ccc(NC(=O)NCCN4CCOCC4)cc3)nc12,,replicon,<0.1 µM
COc1cc(-c2cc(N(C(=O)C3CCC(C)CC3)C(C)C)c(C(=O)O)s2)ccc1NC(=O)c1cscn1,1a,replicon,<0.5 µM
CC1(C)CC(=O)C2=C(C1)Nc1c(O)cccc1NC2c1ccc(OCc2ccccc2)c(Cl)c1,1b,luciferase / reporter gene / replicon,12.65 µM
CC(C)N(C(=O)C1CCC(C(F)(F)F)CC1)c1cc(-c2ccc(NC(=O)c3cscn3)cc2)sc1C(=O)O,1b,replicon,<0.5 µM
CC1(C)CC(=O)C2=C(C1)Nc1c(O)cccc1NC2c1ccc(C(F)(F)F)cc1C(F)(F)F,1b,luciferase / reporter gene / replicon,41.26 µM
O=C(O)c1c(-c2ccc[nH]c2=O)c2c3ncccc3ccc2n1Cc1cc(F)ccc1F,,replicon,1–10 µM
COc1cc2c(=O)c(-c3noc(Cc4ccsc4)n3)cn(Cc3ccc(Cl)cc3)c2cc1OC,1b,replicon,<10 µM
CCOc1nc(NCc2ccc(F)cc2)nc2ccc(-c3ccc(NC(=O)[C@@H]4CCCN4)cc3)nc12,,replicon,<0.1 µM
Cc1cc(C(=O)Nc2ccc(-c3cc(N(C(=O)C4CCC(C)CC4)C(C)C)c(C(=O)O)s3)cc2)nn1C,1b,replicon,<0.5 µM
CS(=O)(=O)NC(=O)c1c(-c2ccc[nH]c2=O)c2c3occc3ccc2n1Cc1ccc(F)cc1F,,replicon,<0.5 µM
NC(=O)CNc1cc2c(cc1F)c(=O)c(-c1noc(Cc3ccccc3)n1)cn2Cc1ccc(C(F)(F)F)cc1F,1b,replicon,<0.5 µM
CCOc1nc(NCc2ccc(S(N)(=O)=O)cc2)nc2ccc(-c3ccc(C(N)=O)cc3)nc12,,replicon,<0.1 µM
CC1(C)CC(=O)C2=C(C1)Nc1c(O)cccc1N(C(=O)CCC(=O)Nc1ccc(S(N)(=O)=O)cc1)C2c1ccc(OCc2ccccc2)cc1Cl,1b,luciferase / reporter gene / replicon,55.33 µM
CN1CCN(c2cc3c(cc2F)c(=O)c(-c2noc(C(CCCCN)c4ccccc4)n2)cn3Cc2ccc(Cl)cc2)CC1,1b,replicon,<10 µM